Results: the supplement of paper PMC9931576
Human monoclonal antibodies against the spike receptor-binding domain (heavy:light variable regions). IC50 against pseudoviruses bearing the spike of naturally observed variants; lower = stronger; >10 µg/ml means not reached at the top dose. No active / inactive call. The stated detection limit is 0.0005 µg/ml; values near or below 0.001 µg/ml lie at the floor of the assay.

B1: BD55-5265 (protein)
chain 1: EVQLVQSGAEVKKPGESLKISCKGAGYIFTHYWIAWVRQMPGKGLEWMGIVHPGDSDTRYSPSFQAQVTISADKSINTAYLQWSSLKASDTAIYFCARHGVHSGYSGYDRWDGHYYGMDVWGQGTTVTVSA
chain 2: SYVLTQPPSVSVAPGKTARITCGGNNIGSKSVHWYQQKPGQAPVLVVYDGSERPSGIPERFSGSNSENTATLTISRVEAGDEADYYCQVWNDNSDSLVFGTGTEVTVL
B2: BD55-1035 (protein)
chain 1: EVQLSESGGGLVQPGGSLRLSCAASGFPFSTYAMTWVRQAPGKGLEWVSVITASGGSTYYADSVKGRFTISRDNYENTLYLQMNNLRTVDTAVYYCAKTMLRSSTEVVIATFFDHWGQGILVTVSS
chain 2: DIVMTQSPDSLAVSLGERATINCKSSQSILNSSNNKNFLAWYQQKPGQPPKLLIYWASNRESGVPDRFSGSGSGTDFTLTINNLQAEDVAVYYCQQYYGTPPYTFGQGTKLEIK
B3: BD55-5239 (protein)
chain 1: QVQLQESGPGLVRPSQTLSLTCSVSGGSISSGTYNWAWIRQPPGKDLEWIGHIYHSGSTYYNPSLRSRVNMSVDTSKNQFSLKLSSVTAADTAVYYCARERGPIAEFDFWGQGILVTVSS
chain 2: DIQMTQSPSSVSASIGDGVTITCRASQGISSWLAWYQQRPGKAPKLLISAAFTLQSGVPSRFSARGSGTDFTLIISNLQPEDFATYYCQQANSFPPTFGQGTKLEIK
B4: BD55-5215 (protein)
chain 1: EVQLVESGGGLGQPGGSLRLSCAASGFTFSRYGMGWVRQAPGKGLEWVSVISGSGGATYYADSVKGRFTISRDNSKNTLFLQMNSLRVEDTAVYYCAKDGGQLQLVEIFTFDPWGRGTLVTVSS
chain 2: DIQMTQSPSSLSASVGDRVTITCRASQGIRNSLAWYQQKPGKAPKLLLYAASRLESGVPSRFSGSGSGTDYTLTISSLQPEDFATYYCQQYYSAWTFGQGTKVEIK
B5: BD55-5264 (protein)
chain 1: QVQLVQSGAEVKKPGASVKVSCKVSGYTLTKFSIHWVRQGHGKGLEWMGGFDIGEGGTIYAQKFQGRVTMTEDTSTDTSYMELSSLRSEDTAMYYCATDGEYSSGWAGVKLWGQGTLVTVSS
chain 2: DIQMTQSPSTLSASVGDRVTITCRASQSISSWLAWYQQKPGKAPKLLIYKASSLESGVPSRFSGSGSGTEFTLTISSLQPDDFATYYCQQCDSYPWTFGQGTKVEIK
B6: BD55-5276 (protein)
chain 1: EVHLEESGGGLVHPGRSLRLSCAASGFTLDEYAMHWVRRAPGKGLEWVSGISWNSGARGYADSVKGRFTISRDNAKNSLYLQMNSLRAEDTAFYYCAKDNSHGSGTAWDWLDSWGQGTLVTVSS
chain 2: NFMLTQPHSVSESPGKTVTISCTRSSGTITNNYVQWYRQRPGSSPTTVIFEDNQRPSGVPDRFSGSIDSSSNSASLTISGLKTEDEADYYCQSHDSSNWVFGGGTKLTVL
B7: BD55-5228 (protein)
chain 1: QVHLVQSGSELKKPGASVKVSCKSSGHTFTIFAINWVRQAPGQGLEWMGWINTNTGNPTYAQGFTGRFVFSLDTSVNTAYLQISSLQPEDTAVYYCVGSNWGDYYFDPWGQGTLVTVSS
chain 2: EIVMTQSPATLSVSPGERATLSCRASYSLSSNLAWYQQKPGQAPRLLIYGASIRATGFPARFSGNGSGTEFTLTISSLQSEDFAVYYCQQYTSWPLTFGQGTKVEIK
B8: BD55-5296 (protein)
chain 1: EVQLVEAGGGLVQPGRSLRLSCTASGFTFGDHAINWVRQAPGKGLEWVGFIRTKPYGGTADYAASVKGKFIISRDDSKSIAYLQMNGLKTEDTAVYYCAREEDRGYSGYDFLDYFYGMDVWGQGTTVIVSS
chain 2: QSVLTQPPSASGTPGQRVTISCSGSNSNIGKEYVYWYQQLPGTAPKLLIYRNNQRPSGVPDRFSASKSGTSASLAISGLRSEDEADYYCAAWDDSLSTFVFATGTRVTVL
B9: BD55-5219 (protein)
chain 1: QVQLVQSGSELKRLGASVTLSCKASGYTFTNYAINWVRQAPGHGLQWMGWINPDTGTPTYAQGFAGRFVFSLDSSVSTSYLQIRSLKADDTAVYYCARDANQWPRNQWFGPWGQGTLVTVSS
chain 2: DIVLTQSPDSLAVSLGERATINCKSSHSVFYSSSNQNDLAWYQQKPGQPPKLLIYWASIRESGVPDRFSGSGSGTDFTLTISSLQAEDVAVYYCQQHYSTPLTFGGGTKVEIK
B10: BD55-5300 (protein)
chain 1: QVQLVQSGAEVKKPGSSVKVSCKASGGSFTSHAVSWVRQAPGQGLEWMGVSIPLFGTAKYAQKFQGRVTITADESTSTVYMSLSNLRSGDTAVYYCARLFPNGTPTDLTAPSDYWGQGTLVTVSS
chain 2: DIQMTQSPSSLSASVGDRVTITCQASQDIGNYLNWYQQKPGKAPKLLIYDASHLETGVPSRFSGSASGTDFTLTISSLQPDDIATYYCQRYDDVPTYTFGQGTKLEIK
B11: BD55-5293 (protein)
chain 1: EVQLVQSGAEVKKPGESLKISCKTSGYSFISNWIGWVRQMPGKGLEWMGIIYPGDSDTRYSPSFQGQVTISVDKSISTAYLQWTSLKASDTAMYFCTRRGDYGEFGGFDGDWGQGTLVTVTS
chain 2: DIQMTQSSSSLSASVGDRVTITCRASQSTGRYLNWYQQKAGKAPKLVIYAVSSLQSGVPSRFSGSGSGTEFTLTINSLQPEDFATYYCQQTYSIPFTFGPGTKVDLK
B12: BD55-5248 (protein)
chain 1: QVQLVESGGGVVQPGRSLRLSCAASGFTFSSYDMYWVRQAPGKGLEWVAVISYDGSSNFYADSVKGRFTISRDNSRNTLSLQMNSLRAEDTAVYFCARERREQLTPVFDHWGQGTLVTVSS
chain 2: DIQMTQSPSSLSASVGDRVTITCRASQSISSYLNWYQQRPGKAPKLLIYSASTLESGVPSRFSGSGSGTDFTLTINSLQPEDFATYYCQQSYSTLALTFGGGTKVEIK
B13: BD55-5242 (protein)
chain 1: QVQLVQSGAEVKKPGASVKVSCKAFGYTFNSNYIHWVRQAPGQGLEWMGVIDPSGGATSYAQKFQGRVTMTRDTSTNTVYMELSSLRSEDTAVYYCARDLGDDVSRGYSGYDFLDLYGMDVWGQGTTVTVS
chain 2: not shown

What follows are binders tested against SARS-CoV-2 Omicron BA.1 spike pseudovirus (assay: pseudovirus neutralization IC50; higher = weaker neutralization).
Procedure: (§1)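 Single-round VSV luciferase pseudovirus mixed with antibody dilutions for 1 h and put on Huh-7 cells for about a day; IC50 from the dose curve.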

Row | Binder | pseudovirus neutralization IC50 [µg/mL]
1 | B1 | > 10
2 | B2 | 0.0188
3 | B3 | > 10
4 | B4 | > 10
5 | B5 | > 10
6 | B6 | > 10
7 | B7 | > 10
8 | B8 | 0.725
9 | B9 | > 10
10 | B10 | 0.00783
11 | B11 | 0.875
12 | B12 | > 10
13 | B13 | 0.0253

The binders below were run against SARS-CoV-2 Omicron BA.2 spike pseudovirus in the same assay as above.
Procedure: as §1

Row | Binder | pseudovirus neutralization IC50 [µg/mL]
14 | B1 | > 10
15 | B2 | 0.00926
16 | B3 | > 10
17 | B4 | > 10
18 | B5 | > 10
19 | B6 | > 10
20 | B7 | > 10
21 | B8 | > 10
22 | B9 | > 10
23 | B10 | 0.00662
24 | B11 | 1.52
25 | B12 | > 10
26 | B13 | > 10

Each binder was assayed against SARS-CoV-2 Omicron BA.2.75 spike pseudovirus in the same assay as above.
Procedure: as §1

Row | Binder | pseudovirus neutralization IC50 [µg/mL]
27 | B1 | > 10
28 | B2 | 0.00671
29 | B3 | > 10
30 | B4 | > 10
31 | B5 | > 10
32 | B6 | > 10
33 | B7 | > 10
34 | B8 | > 10
35 | B9 | > 10
36 | B10 | 0.00792
37 | B11 | 5.25
38 | B12 | > 10
39 | B13 | > 10

The binders below were run against SARS-CoV-2 Omicron BA.5 spike pseudovirus in the same assay as above.
Procedure: as §1

Row | Binder | pseudovirus neutralization IC50 [µg/mL]
40 | B1 | > 10
41 | B2 | > 10
42 | B3 | > 10
43 | B4 | > 10
44 | B5 | > 10
45 | B6 | > 10
46 | B7 | > 10
47 | B8 | > 10
48 | B9 | > 10
49 | B10 | 0.00547
50 | B11 | > 10
51 | B12 | > 10
52 | B13 | > 10

Each binder was assayed against SARS-CoV-2 Omicron BQ.1.1 spike pseudovirus in the same assay as above.
Procedure: as §1

Row | Binder | pseudovirus neutralization IC50 [µg/mL]
53 | B1 | > 10
54 | B2 | > 10
55 | B3 | > 10
56 | B4 | > 10
57 | B5 | > 10
58 | B6 | > 10
59 | B7 | > 10
60 | B8 | > 10
61 | B9 | > 10
62 | B10 | 0.0304
63 | B11 | > 10
64 | B12 | > 10
65 | B13 | > 10

The binders below were run against SARS-CoV-2 Omicron XBB spike pseudovirus in the same assay as above.
Procedure: as §1

Row | Binder | pseudovirus neutralization IC50 [µg/mL]
66 | B1 | > 10
67 | B2 | > 10
68 | B3 | > 10
69 | B4 | > 10
70 | B5 | > 10
71 | B6 | > 10
72 | B7 | > 10
73 | B8 | > 10
74 | B9 | > 10
75 | B10 | 0.0108
76 | B11 | > 10
77 | B12 | > 10
78 | B13 | > 10

What follows are binders tested against SARS-CoV-2 early D614G spike pseudovirus in the same assay as above.
Procedure: as §1

Row | Binder | pseudovirus neutralization IC50 [µg/mL]
79 | B1 | 0.216
80 | B2 | 0.001
81 | B3 | 0.324
82 | B4 | 1.23
83 | B5 | 1.69
84 | B6 | 0.125
85 | B7 | 0.006
86 | B8 | 0.0811
87 | B9 | 0.0136
88 | B10 | 0.0051
89 | B11 | 0.711
90 | B12 | 0.859
91 | B13 | 0.0154
